Measured values from several laboratories, pooled; numbers as filed in NIAID ChemDB.

All rows: whole-cell or culture tests; species: Herpes simplex virus 1; measure: EC50

a–b is a range or a potency band. Lines come from different laboratories, so protocols vary. ECn: concentration that inhibits the pathogen or its effect by n%. Blank or dashed fields: not listed here.

compound | strain | cells | method | result
Nc1ncnc2c1ncn2[C@@H]1O[C@H](CO)[C@@H](O)[C@@H]1O | E-377 | MEF | plaque count | 14 µM
O=c1[nH]c(=O)n([C@H]2C[C@H](O)[C@@H](CO)O2)cc1I | KOS | HSF | cytopathic effect | 0.4 µg/mL
O=C(NCc1ccc(Cl)cc1)c1c[nH]c2c(F)cccc2c1=O | DJL | - | plaque count | 15 µM
C[C@H]1[C@H](O)[C@@H](CO)O[C@H]1n1cc(Br)c(=O)[nH]c1=O | F | RPMI8226 | cytopathic effect | 7.34 µg/mL
CC(=O)OCCOCN1C(N)=CC(N)=NS1(=O)=O | KOS | E6SM | - | >400 µg/mL
Nc1ncnc2c1ncn2[C@@H]1O[C@H](CO)[C@@H](O)[C@@H]1O | KOS | VERO | plaque count | 26.1 µM
O=c1[nH]c(=O)n([C@H]2C[C@H](O)[C@@H](CO)O2)cc1/C=C/Br | MP | HELF | plaque count | 0.011 µg/mL
CC1=CC(=O)N(c2ccccc2)S(=O)(=O)N1COCCO | F | E6SM | - | >400 µg/mL
O=c1[nH]c(=O)n([C@H]2C[C@H](O)[C@@H](CO)O2)cc1/C=C/C(F)(F)F | KOS | HELA BU | plaque count | <10 µM
CC(=O)OCCOCN1C(C)=CC(N)=[N+](c2ccccc2)S1(=O)=O | McIntyre | E6SM | - | >400 µg/mL
Nc1nc2c(ncn2COCCO)c(=O)[nH]1 | KOS | BALB/3T3 | plaque count | 0.02 µg/mL
Cc1cn([C@H]2C[C@H](O)[C@@H](CO)O2)c(=O)nc1N | - | HeLa | virus yield | <32 µM
C=Cc1cc([C@H]2C[C@H](O)[C@@H](CO)O2)c(F)cc1F | KOS | E6SM | cytopathic effect | >400 µg/mL
CCNc1cn([C@H]2C[C@H](O)[C@@H](CO)O2)c(=O)[nH]c1=O | - | GMK | - | 50 µg/mL
Cn1cc(C(=O)NCc2ccc(Cl)cc2)c(=O)c2cc(/C=C\CO)cc(F)c21 | F-M1 | VERO | plaque count | >20 µM
CCCCC(=O)OC[C@H]1O[C@@H](n2cnc3c(N)ncnc32)[C@@H](O)[C@@H]1O | Clinical isolate Wilson | MEF | plaque count | 11 µM
Cc1cn([C@@H]2O[C@H](COP(=O)(O)O)[C@@H](O)[C@@H]2O)c(=O)[nH]c1=O | CHR-3 | HELF | cytopathic effect | 1 µg/mL
Cc1cn([C@@H]2O[C@H](CO)[C@@H](O)[C@@H]2F)c(=O)[nH]c1=O | CHR-3 | HELF | plaque count | 0.006 µg/mL
O=c1ccn([C@H]2C[C@@H](O)[C@H](CO)O2)c(=O)[nH]1 | F | VERO B | cytopathic effect | >100 µM
CCOC(=O)C1=CN(COCCOC(C)=O)S(=O)(=O)N=C1N | McIntyre | E6SM | - | >400 µg/mL
CC(C)(C)NC(=O)CN(C(=O)[C@H]1CC[C@@]2(C)C3CC=C4C[C@@H](O)CC[C@]4(C)C3CC[C@]12C)c1ccccc1 | B2006 | Vero cells | plaque count | 20 µM
Cn1cc(C(=O)NCc2ccc(Cl)cc2)c(=O)c2cc(CN3CCOCC3)ccc21 | KOS | VERO | plaque count | 3.8 µM
Cn1cc(C(=O)NCc2ccc(Cl)cc2)c(=O)c2cc(CN3CCOCC3)ccc21 | L6183347 ACV resistant | HFF | plaque count | 9.1 µM
CC[C@@H](NC(=O)[C@@H](CC(=O)[C@@H](CC(=O)[C@@H](NC(=O)[C@H](C(C)C)N(C)C(=O)[C@H](C)CC1CCCCC1)C(C)(C)C)CC(=O)C(C)(C)C)C1(C(=O)O)CCCC1)C(C)(C)C | KOS | BHK-21/C13 | ELISA | 0.43 µM
CN(C)c1cn([C@H]2C[C@H](O)[C@@H](CO)O2)c(=O)[nH]c1=O | - | GMK | - | 150–300 µg/mL
Nc1ccn([C@H]2C[C@@H](O)[C@H](CO)O2)c(=O)n1 | F | VERO B | cytopathic effect | >10 µM
CSCc1cn([C@H]2C[C@H](O)[C@@H](CO)O2)c(=O)[nH]c1=O | VEW257 | PRK | cytopathic effect | 20 µg/mL
O=C(O)P(=O)(O)O | K1 | GMK | plaque count | 83.3 µM
C[C@H]1[C@H](O)[C@@H](CO)O[C@H]1n1cc(I)c(=O)[nH]c1=O | KOS | RPMI8226 | cytopathic effect | 0.12 µg/mL
[N-]=[N+]=NC(CBr)c1cc([C@H]2C[C@H](O)[C@@H](CO)O2)c(F)cc1F | F | E6SM | cytopathic effect | >400 µg/mL
CC(=O)OCCOCN1C=CC(=O)N(COCCOC(C)=O)S1(=O)=O | B206 (TK-) | E6SM | - | >400 µg/mL
Nc1nc2c(ncn2COC(CO)CO)c(=O)[nH]1 | 5399 | VERO H | plaque count | 1.08 µM
[O-][n+]1onc2ncnc(N3CC[N+]4(CC3)CC[N+]3(CCN(c5ncnc6no[n+]([O-])c56)CC3)CC4)c21 | ANGPR | GMK | plaque count | 9.8 µM
Nc1nc2c(ncn2COC2COP(=O)(O)OC2)c(=O)[nH]1 | KOS | MRC-5 | plaque count | 18 µM
O=C(O)P(=O)(O)O | McIntyre | MEF | plaque count | 78.1 µg/mL
O=c1[nH]c(=O)n([C@H]2C[C@H](O)[C@@H](CO)O2)cc1/C=C/Br | KOS | HELA BU | plaque count | <10 µM
O=c1[nH]c(=O)n([C@@H]2O[C@H](CO)[C@@H](O)[C@@H]2F)cc1I | KOS | RPMI8226 | cytopathic effect | 0.081 µg/mL
CN1[C@@H]2CC[C@H]1CC(OC(=O)C(CO)c1ccccc1)C2 | - | HeLa | - | >400 µg/mL
CN(C)Cc1cn([C@H]2C[C@H](O)[C@@H](CO)O2)c(=O)[nH]c1=O | KOS | PRK | cytopathic effect | >200 µg/mL
O=C(O)P(=O)(O)O | ACG-resistant | RK-13 | plaque count | 31 µM
Nc1nc2c(ncn2COCCO)c(=O)[nH]1 | MP | HELF | plaque count | 0.02 µg/mL
CC(=O)OCCOCN1C=CC(=O)N(COCCO)S1(=O)=O | B206 (TK-) | E6SM | - | >400 µg/mL
C[C@H]1[C@H](O)[C@@H](CO)O[C@H]1n1cc(Br)c(N)nc1=O | F | RPMI8226 | cytopathic effect | 1.86 µg/mL
CC(C)(C)NC(=O)CN(C(=O)[C@H]1CC[C@@]2(C)C3CC=C4C[C@@H](O)CC[C@]4(C)C3CC[C@]12C)c1ccccc1Cl | KOS | Vero cells | plaque count | 12.8 µM
O=C(NCc1ccc(Cl)cc1)c1cn2c3c(cc(CN4CCOCC4)cc3c1=O)OC(c1cccnc1)C2 | E-377 | HFF | plaque count | 11.3 µM
Nc1nc(=O)n([C@H]2C[C@H](O)[C@@H](CO)O2)cc1F | - | HeLa | virus yield | <50 µM
OC[C@H]1O[C@@H](c2cc(C#CBr)c(F)cc2F)C[C@@H]1O | VMW1837 (TK-) | E6SM | cytopathic effect | >400 µg/mL
Cc1cc2nc3c4ccccc4n(Cc4ncc[nH]4)c3nc2cc1C | C42 | RK-13 | ELISA | 12.3 µM
Nc1nc(=O)n([C@@H]2O[C@H](CO)[C@@H](O)[C@@H]2F)cc1I | MP | HELF | plaque count | 0.008 µg/mL
O=c1[nH]c(=O)n([C@H]2C[C@H](O)[C@@H](CO)O2)cc1Cc1ccccc1 | KOS | HSF | cytopathic effect | 450 µM
Nc1nc2c(ncn2CC[C@H](O)CO)c(=O)[nH]1 | C42 | SIRC | plaque count | 7 µM
Cc1cc2nc3c4ccccc4n(CCN(C)C)c3nc2cc1C | C42 | HL | - | 1.5 µM
Nc1nc(-c2ccc(NC(=O)CNCc3ccccc3)cc2)cs1 | - | BHK-21/C13 | plaque count | 2.7 µM
Nc1nc2c(ncn2COCCO)c(=O)[nH]1 | SC16 | MRC-5 | - | 0.06 µg/mL
CC(=O)OCCOCN1C=CC(=O)NS1(=O)=O | B206 (TK-) | E6SM | - | >400 µg/mL
c1cc(C23CC4CC(CC(C4)C2)C3)no1 | 1C | Chick embryo fibroblasts | - | 8.1 µg/mL

The last 7 rows once more:

compound,strain,cells,method,result
O=c1[nH]c(=O)n([C@H]2C[C@H](O)[C@@H](CO)O2)cc1Cc1ccccc1,KOS,HSF,cytopathic effect,450 µM
Nc1nc2c(ncn2CC[C@H](O)CO)c(=O)[nH]1,C42,SIRC,plaque count,7 µM
Cc1cc2nc3c4ccccc4n(CCN(C)C)c3nc2cc1C,C42,HL,-,1.5 µM
Nc1nc(-c2ccc(NC(=O)CNCc3ccccc3)cc2)cs1,-,BHK-21/C13,plaque count,2.7 µM
Nc1nc2c(ncn2COCCO)c(=O)[nH]1,SC16,MRC-5,-,0.06 µg/mL
CC(=O)OCCOCN1C=CC(=O)NS1(=O)=O,B206 (TK-),E6SM,-,>400 µg/mL
c1cc(C23CC4CC(CC(C4)C2)C3)no1,1C,Chick embryo fibroblasts,-,8.1 µg/mL